Values of other authors in article PMC12724327, “Structure-guided discovery of a small molecule inhibitor of SARS-CoV-2 main protease with potent in vitro and in vivo antiviral activities” (Journal of Virology, 2025).

Target: SARS-CoV-2 M^pro (Severe acute respiratory syndrome coronavirus 2, UniProt P0DTD1)
Settings: cited from earlier work

SMILES: CC(C)(C)OC(=O)N[C@H](C(=O)N[C@@H](Cc1ccccc1)C(=O)N[C@H](C=O)C[C@@H]1CCNC1=O)C(C)(C)C
- IC50: 8.8 nM
